Measurements from publication PMC7111291 (European Journal of Medicinal Chemistry, 2020).

Tested on: VSVG/HIV-1RT-K103N,Y181C
Format: cell-based

Question: `O=C1Nc2ccc(Cl)cc2[C@@](C#CC2CC2)(C(F)(F)F)O1` [EFV, efavirenz] was tested. Which “Mean change (fold) in EC50 compared to wild type” value did it give?
Answer: 0.05 ± 0.003 (50.2) fold
